{
  "source": "BindingDB's records for doi:10.1021/jm001024j",
  "about": "(Uppsala University, 2001)",
  "biological_target": "T1, Dimer of Gag-Pol polyprotein [489-587] (Human immunodeficiency virus 1, UniProt P12497)",
  "T1 construct": "489-587",
  "assay": "Protease Inhibition Assay",
  "conditions": "pH 5; 30 °C",
  "data": [
    {"smiles": "CNC(=O)c1cccc(CN2[C@H](COc3ccccc3)[C@H](O)[C@@H](O)[C@@H](COc3ccccc3)N(Cc3ccccc3)S2(=O)=O)c1", "note": "[3-{[(3R,4S,5S,6R)-7-benzyl-4,5-dihydroxy-1,1-dioxo-3,6-bis(phenoxymethyl)-1,2,7-thiadiazepan-2-yl]methyl}-N-methylbenzamide]", "values": [
      {"measurement": "Ki", "value": 11, "unit": "nM"}
    ]}
  ]
}
